Assay results published in publication PMC9500544, “Anti-Trichomonas gallinae activity of essential oils and main compounds from Lamiaceae and Asteraceae plants” (Frontiers in Veterinary Science, 2022).

System: Trichomonas gallinae trophozoites
Test: Anti-trichomonal (AT) activity in vitro, MTT reduction assay on trophozoites
Type: cell-based
Details: SI = CC50 (Vero cells)/IC50 (T. gallinae)
Method: The AT activity assay was performed using round bottom microwell plates in quadruplicate. Each well had 150 μl of T. gallinae trophozoites in Trypticase-Yeast Extract-Maltose medium (TYM) with 10% fetal calf serum (Sigma, Madrid, Spain) at 500.000 trophozoites/ml ([29]). EOs and pure compounds were solved in DMSO (Sigma, Madrid, Spain) (<1% final concentration). […] Trophozoite viability was analyzed using the modified MTT colorimetric assay method as previously described in literature ([29]). […] Prior to reading, 100 μl of DMSO was added to each well to dissolve the formazan crystals. The plate was read in a spectrophotometer using a wavelength of 570 nm.
The percentage of AT activity was calculated as growth inhibition using the following formula: […]
Where Ap is the absorbance of the tested product, Ab the absorbance of the blank and Ac the absorbance of the control wells (culture without treatment). […]
IC50 anti-trichomonal activity and CC50 cytotoxic activity were determined from the dose-response experiment, employing a linear regression analysis (% cell viability on log dose).

## CC1(C)C(=O)[C@@]2(C)CCC1C2 [D-fenchone]
  SI, Selectivity index: > 1.62 and > 1.6

Where “and” joins values, the source holds several entries; their conditions need not be identical. Equal values may be shown once.
